Measured values as given in article PMC12548384.
Construct, isoform or probe ends are uncertain for at least one entry.

Target: T1, CmrR (Clostridioides difficile R20291) (UniProt A0A9R0CG09)
T1 sequence: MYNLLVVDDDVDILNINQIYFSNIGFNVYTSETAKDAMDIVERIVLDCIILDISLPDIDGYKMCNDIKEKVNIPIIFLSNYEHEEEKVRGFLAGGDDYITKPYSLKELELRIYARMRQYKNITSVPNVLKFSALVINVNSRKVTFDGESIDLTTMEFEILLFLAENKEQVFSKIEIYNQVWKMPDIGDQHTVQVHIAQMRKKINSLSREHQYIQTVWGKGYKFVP
Assay: EMSA
Details: up to 1.5 uM CmrR; EMSA: 15 nM probe, 1x binding buffer 20 mM Tris pH 8, 1 mM EDTA, 10 mM MgCl2, 100 mM NaCl, 5% glycerol, plus half volume protein in His6 buffer; recombinant protein; protein details: N-terminal 6xHis (pET28a+); probe letters rebuilt from the primers and the genome

CTAGCCAATAGACAAGTTTCTAGAAAAATAATAAATTTATAAGTGAAAATGACTTTAAGCTCCATTCTCCAACAATCGGAGACTTTAATTAGTATTTAATAATAAATCTTAATGTTCAATACAATATTCAAGAATTGTTCAAAAATACTTAAGTATTATAGTCTAGTTTGTAAAGATATTATAAAATAATAATACTAGTTATATATGAAAATAAAACATTATAATTTGTAATAATTATAAAACTTGAGATTATGATTAAAATACCTTTGAATGGAGTGGTGTAATGTATAATTTACTGGTTGTAGATGATGATGTTG (double strand) [probe 8 (cmr switch in other orientation than probe 5)]
binding result: binds
